Measurements published in article PMC11904993, “Humanized Candida and NanoBiT Assays Expedite Discovery of Bdf1 Bromodomain Inhibitors With Antifungal Potential” (Advanced Science, 2025).
Several values for one entry are separate records, joined by “and”; a condition that tells them apart may be missing. Equal values may be shown once.

tested on: CgBdf1 BD1; assay: not given; conditions: CgBdf1 BD1 WT; normalized peptide array signal

Structure (SMILES)	Normalized (0 to 100%), WT, Average [%]
COc1nccnc1NC1CCN(C(=O)c2ccncc2)CC1	1.42

same assay, conditions: CgBdf1 BD1 WT; peptide array signal, left replicate

Structure (SMILES)	Raw data, WT, Left
COc1nccnc1NC1CCN(C(=O)c2ccncc2)CC1	0

same assay, conditions: CgBdf1 BD1 WT; peptide array signal, right replicate

Structure (SMILES)	Raw data, WT, Rigt
COc1nccnc1NC1CCN(C(=O)c2ccncc2)CC1	0.02836

same assay, conditions: CgBdf1 BD1 YF mutant; normalized peptide array signal

Structure (SMILES)	Normalized (0 to 100%), YF mutant, Average [%]
COc1nccnc1NC1CCN(C(=O)c2ccncc2)CC1	0.308

same assay, conditions: CgBdf1 BD1 YF mutant; peptide array signal, left replicate

Structure (SMILES)	Raw data, YF mutant, Left
COc1nccnc1NC1CCN(C(=O)c2ccncc2)CC1	0.003085

same assay, conditions: CgBdf1 BD1 YF mutant; peptide array signal, right replicate

Structure (SMILES)	Raw data, YF mutant, Right
COc1nccnc1NC1CCN(C(=O)c2ccncc2)CC1	0.003085

tested on: CgBdf1 BD2; assay: not given; conditions: CgBdf1 BD2 WT; normalized peptide array signal

Structure (SMILES)	Normalized (0 to 100%), WT, Average [%]
CC(=O)N1CCc2[nH]c3ccc(C(=O)Nc4ccc(N5CCOCC5)cc4)cc3c2C1	0.671
COc1nccnc1NC1CCN(C(=O)c2ccncc2)CC1	0.452
COc1cc2nc(C(=O)N3CCCCC3)cc(Nc3ccc(Br)cc3)c2cc1OC	0.873
CCc1cccc(NC(=O)Cn2ccc3ccc(-c4nnc(C)o4)cc32)c1	1.34

same assay, conditions: CgBdf1 BD2 WT; peptide array signal, left replicate

Structure (SMILES)	Raw data, WT, Left
CC(=O)N1CCc2[nH]c3ccc(C(=O)Nc4ccc(N5CCOCC5)cc4)cc3c2C1	0.00811
COc1nccnc1NC1CCN(C(=O)c2ccncc2)CC1	0.004367
COc1cc2nc(C(=O)N3CCCCC3)cc(Nc3ccc(Br)cc3)c2cc1OC	0.009357
CCc1cccc(NC(=O)Cn2ccc3ccc(-c4nnc(C)o4)cc32)c1	0.01497

same assay, conditions: CgBdf1 BD2 WT; peptide array signal, right replicate

Structure (SMILES)	Raw data, WT, Rigt
CC(=O)N1CCc2[nH]c3ccc(C(=O)Nc4ccc(N5CCOCC5)cc4)cc3c2C1	0.005303
COc1nccnc1NC1CCN(C(=O)c2ccncc2)CC1	0.004679
COc1cc2nc(C(=O)N3CCCCC3)cc(Nc3ccc(Br)cc3)c2cc1OC	0.00811
CCc1cccc(NC(=O)Cn2ccc3ccc(-c4nnc(C)o4)cc32)c1	0.01185

same assay, conditions: CgBdf1 BD2 YF mutant; normalized peptide array signal

Structure (SMILES)	Normalized (0 to 100%), YF mutant, Average [%]
CC(=O)N1CCc2[nH]c3ccc(C(=O)Nc4ccc(N5CCOCC5)cc4)cc3c2C1	0.675
COc1nccnc1NC1CCN(C(=O)c2ccncc2)CC1	0.706
COc1cc2nc(C(=O)N3CCCCC3)cc(Nc3ccc(Br)cc3)c2cc1OC	0.782
CCc1cccc(NC(=O)Cn2ccc3ccc(-c4nnc(C)o4)cc32)c1	0.936

same assay, conditions: CgBdf1 BD2 YF mutant; peptide array signal, left replicate

Structure (SMILES)	Raw data, YF mutant, Left
CC(=O)N1CCc2[nH]c3ccc(C(=O)Nc4ccc(N5CCOCC5)cc4)cc3c2C1	0.01012
COc1nccnc1NC1CCN(C(=O)c2ccncc2)CC1	0.01104
COc1cc2nc(C(=O)N3CCCCC3)cc(Nc3ccc(Br)cc3)c2cc1OC	0.01166
CCc1cccc(NC(=O)Cn2ccc3ccc(-c4nnc(C)o4)cc32)c1	0.01472

same assay, conditions: CgBdf1 BD2 YF mutant; peptide array signal, right replicate

Structure (SMILES)	Raw data, YF mutant, Right
CC(=O)N1CCc2[nH]c3ccc(C(=O)Nc4ccc(N5CCOCC5)cc4)cc3c2C1	0.003374
COc1nccnc1NC1CCN(C(=O)c2ccncc2)CC1	0.003067
COc1cc2nc(C(=O)N3CCCCC3)cc(Nc3ccc(Br)cc3)c2cc1OC	0.003988
CCc1cccc(NC(=O)Cn2ccc3ccc(-c4nnc(C)o4)cc32)c1	0.003988

tested on: C. glabrata strains expressing WT and mutant Bdf1; assay: Growth inhibition in liquid media, C. glabrata lab strains; conditions: WT BDF1 strain; Exp 1-3; Figure S9A

Structure (SMILES)	OD at 600 nm
CC(=O)N1CCc2[nH]c3ccc(C(=O)Nc4ccc(N5CCOCC5)cc4)cc3c2C1	0.5087 and 0.5197 and 0.5267
COc1cc2nc(C(=O)N3CCCCC3)cc(Nc3ccc(Br)cc3)c2cc1OC	0.6420 and 0.6500 and 0.6260

same assay, conditions: bdf1-bd1Δ strain; Exp 1-3; Figure S9A

Structure (SMILES)	OD at 600 nm
CC(=O)N1CCc2[nH]c3ccc(C(=O)Nc4ccc(N5CCOCC5)cc4)cc3c2C1	0.2540 and 0.2480 and 0.2560
COc1cc2nc(C(=O)N3CCCCC3)cc(Nc3ccc(Br)cc3)c2cc1OC	0.3943 and 0.3973 and 0.3593

same assay, conditions: bdf1-bd2Δ strain; Exp 1-3; Figure S9A

Structure (SMILES)	OD at 600 nm
CC(=O)N1CCc2[nH]c3ccc(C(=O)Nc4ccc(N5CCOCC5)cc4)cc3c2C1	0.1487 and 0.1237 and 0.1367
COc1cc2nc(C(=O)N3CCCCC3)cc(Nc3ccc(Br)cc3)c2cc1OC	0.2733 and 0.2603 and 0.2563
